Values quoted from earlier work in US20160331779A1 (priority 2015, published 2016).

Test system: Aspergillus flavus
Settings: cited from earlier work

[Na+].[O-]Cl [hypochlorite, sodium hypochlorite]
NaOCl concentration at which cultures of Aspergillus flavus and aflatoxins were destroyed: 7 mM
